Compound potency records, mixed from different reports. Data source: NIAID ChemDB in PubChem.

Common to all: tests in culture

Lines come from different laboratories, so protocols vary. ECn: concentration that inhibits the pathogen or its effect by n%. A number after MIC or MFC names an inhibition level or a share of isolates. An empty or dashed field is not shown. Percent inhibition refers to the dose given; in toxicity tests it is the harm to the cells.

SMILES,tested at,read by,cell line,species,endpoint,strain or isolate,result
C=Cc1cn([C@@H]2O[C@H](CO)[C@@H](O)[C@@H]2O)c(=O)[nH]c1=O,1 µg/mL,plaque count,HELF,Varicella zoster virus,inhibition,Kawaguchi,97%
O=C(Nc1ccc(S(=O)(=O)[O-])c2cccc(S(=O)(=O)[O-])c12)c1ccccc1,10 µg/mL,cytopathic effect,Human embryonic lung cells,Adenovirus,inhibition,TYPE 3,0%
Cc1nc(NCCCCNc2ccnc3cc(Cl)ccc23)nc(-c2ccccc2)c1C(=O)OC(C)C,-,-,-,Cryptococcus gattii,MIC99,1913 ER,8 µg/mL
CCOC(=O)c1ccc(OCCC2CCN(c3ccc(C)nn3)CC2)cc1,-,neutral red,KB,Rhinovirus,EC50,50-525-CV54 (ICAM-1 receptor group 85),0.054 µM
CC(=O)N[C@H]1[C@H]([C@H](O)[C@H](O)CO)OC(C(=O)O)=C[C@@H]1N=C(N)N,-,-,MDCK,Influenza B virus,EC50,B/LEE/40,0.6 µM
C/C=C\[C@@H]1C[C@H](C(=O)O)N[C@H]1[C@@H](NC(C)=O)[C@](C)(CCC)OC,-,plaque count,MDCK,Influenza A virus,EC50,Influenza A H3N2 isolate C26C,5.1 µg/mL
C=CCc1ccc(OC)c(OC)c1,-,turbidity,-,Candida tropicalis,MIC90,3189,345 µg/mL
O=c1[nH]c(=O)n([C@@H]2O[C@H](CO)[C@@H](O)[C@@H]2O)cc1/C=C/Cl,0.0001 µg/mL,plaque count,HELF,Varicella zoster virus,inhibition,Ohtomo,68%
Oc1ccccc1C=Nc1ccccc1O,-,-,-,Cryptococcus neoformans,MIC99,27JF,11.3 µg/mL
CCOC(=O)/C=C/[C@H](C[C@@H]1CCNC1=O)NC(=O)[C@@H](CC(=O)[C@@H](NC(=O)c1cc(C)on1)C(C)C)Cc1ccc(F)cc1,-,cytopathic effect / visual reading,OHIO HELA-I,Rhinovirus,EC50,Isolate 8,0.04 µg/mL
O=C(Nc1c(S(=O)(=O)[O-])cc2cc(S(=O)(=O)[O-])cc(O)c2c1O)c1ccccc1,10 µg/mL,cytopathic effect,Human embryonic lung cells,Adenovirus,inhibition,TYPE 3,90%
CCOC(=O)c1c(C)nc(NCCCCNc2ccnc3cc(Cl)ccc23)nc1-c1ccccc1[N+](=O)[O-],-,-,-,Cryptococcus gattii,MIC99,29/10893,4 µg/mL
O=S(=O)(O)c1cc(O)c2c(O)c(N=Nc3ccccc3)c(S(=O)(=O)O)cc2c1,10 µg/mL,cytopathic effect,Human amnion AV3 cells,Herpes simplex virus,inhibition,-,10%
Nc1nc2c(ncn2COCCO)c(=O)[nH]1,0.1 µg/mL,plaque count,HELF,Varicella zoster virus,inhibition,Kawaguchi,4%
Cc1cc(-c2ccc(N=Nc3c(S(=O)(=O)O)cc4cc(S(=O)(=O)O)cc(N)c4c3O)c(C)c2)ccc1N=Nc1c(S(=O)(=O)O)cc2cc(S(=O)(=O)O)cc(N)c2c1O,5 µg/mL,cytopathic effect,Human amnion AV3 cells,Herpes simplex virus,inhibition,-,0%
Nc1nc(=O)n([C@@H]2O[C@H](CO)[C@@H](O)[C@@H]2F)cc1I,0.1 µg/mL,plaque count,HELF,Varicella zoster virus,inhibition,YS,86%
O=S(=O)([O-])c1cccc(O)c1,5 µg/mL,cytopathic effect,Human amnion AV3 cells,Herpes simplex virus,inhibition,-,19%
Oc1cccc(C=Nc2ccccc2O)c1,-,-,-,Cryptococcus gattii,MIC99,LMM 818,5.7 µg/mL
O=C1C(c2[nH]c3ccc(S(=O)(=O)O)cc3c2O)=Nc2ccc(S(=O)(=O)O)cc21,10 µg/mL,cytopathic effect,Human embryonic lung cells,Adenovirus,inhibition,TYPE 3,0%
CCc1cn([C@@H]2O[C@H](CO)[C@@H](O)[C@@H]2O)c(=O)[nH]c1=O,100 µg/mL,plaque count,HELF,Varicella zoster virus,inhibition,OKA,0%
O=S(=O)([O-])c1ccc2c(O)cc(S(=O)(=O)[O-])cc2c1,50 µg/mL,cytopathic effect,Human amnion AV3 cells,Adenovirus,inhibition,TYPE 3,0%
Cc1nc(NCCCCNc2ccnc3cc(Cl)ccc23)nc(-c2ccccc2[N+](=O)[O-])c1C(=O)OC(C)C,-,-,-,Cryptococcus gattii,MIC99,LMM 818,11.3 µg/mL

The last 2 rows once more:

SMILES | tested at | read by | cell line | species | endpoint | strain or isolate | result
O=S(=O)([O-])c1ccc2c(O)cc(S(=O)(=O)[O-])cc2c1 | 50 µg/mL | cytopathic effect | Human amnion AV3 cells | Adenovirus | inhibition | TYPE 3 | 0%
Cc1nc(NCCCCNc2ccnc3cc(Cl)ccc23)nc(-c2ccccc2[N+](=O)[O-])c1C(=O)OC(C)C | - | - | - | Cryptococcus gattii | MIC99 | LMM 818 | 11.3 µg/mL